Results reported in US20040175731.
For at least one entry, the source does not settle the construct or the ends of the probe. Where cells or extracts were used, other partners may take part.

What was measured:
Experiment in all cases: pull-down
[1] = target: DNA-binding protein II (HU) (Staphylococcus aureus) (UniProt Q99U17); settings: DNA affinity chromatography; described as non-specific DNA binding protein; protein in an extract; protein details: MN8 lysate, identified by mass spectrometry; label: terminal biotin
[2] = target: SarA (Staphylococcus aureus) (UniProt Q2G2U9); settings: DNA affinity chromatography with MN8 lysate; MS identification; protein in an extract; protein details: MN8 lysate, identified by mass spectrometry; label: terminal biotin
[3] = target: TcaR (Staphylococcus aureus) (UniProt Q9F4G3); settings: DNA affinity chromatography with MN8 lysate; MS identification; Example 2 states a 58 bp oligo; protein in an extract; protein details: MN8 lysate, identified by mass spectrometry; label: terminal biotin
[4] = tested on: Topoisomerase IV (Staphylococcus aureus); settings: DNA affinity chromatography; described as non-specific; Example 2 states a 58 bp oligo; protein in an extract; protein details: MN8 lysate, identified by mass spectrometry; label: terminal biotin

Measured: binding result

CTATGTTACAGGAAAATTAAGTTGCAATTACAAATATTTCCGTTTAATTATAA (double strand) [53-bp affinity chromatography probe]
binds: all assays above
